Compound potency records, mixed from different reports. Data source: NIAID ChemDB in PubChem.

All rows: growth or infection tests

Two numbers with a dash give a range or band.

O=C(NCc1c(F)ccc2nccnc12)c1c2n(c(=O)n1-c1ccc(-n3cccn3)cc1)CCN(C(=O)c1ccc(Br)c(Cl)c1)C2 ; agent: Hepatitis B virus ; cells: HepG2.117 ; method: PCR ; measure: EC50 ; value: 0.1–0.5 µM
Cc1c(C(=O)C(=O)NC(C)(C)c2cnn(C)c2)c(C)n(C)c1C(=O)Nc1ccc(F)c(C#N)c1 ; agent: Hepatitis B virus ; cells: HepG2.2.15 ; method: PCR ; measure: EC50 ; value: 0.001–0.0099 µM
NC(=S)Nc1cccc(OCCCCCOc2ccccc2C(=O)Oc2ccccc2)c1 ; agent: Hepatitis C virus ; cells: Ava5-EG(delta4AB)SEAP ; method: reporter gene / fluorescence ; measure: EC50 ; value: 0.001–1 µM
CC1(C)CC(=O)C2=C(C1)Nc1c(O)cccc1N(C(=O)CC(=O)O)[C@H]2c1ccc(Oc2ccccc2Br)cc1Cl ; agent: Hepatitis C virus ; strain: 1b ; method: luciferase / reporter gene / replicon ; measure: EC50 ; value: 95.19 µM
CCN(CC)c1ccc2c(c1)Cc1cc(NC(N)=S)ccc1-2 ; agent: Hepatitis C virus ; cells: Ava5-EG(delta4AB)SEAP ; method: reporter gene / fluorescence ; measure: EC50 ; value: 0.001–1 µM
CC1(C)CC(=O)C2=C(C1)Nc1c(O)cccc1N(C(=O)CCC(=O)NCc1ccoc1)C2c1ccc(OCc2ccccc2)cc1Cl ; agent: Hepatitis C virus ; strain: 1b ; method: luciferase / reporter gene / replicon ; measure: EC50 ; value: 22.01 µM
Cc1cc(-n2c(C(=O)NCc3ccccc3)c3n(c2=O)CCN(C(=O)c2ccc(Br)c(Cl)c2)C3)ccc1C#N ; agent: Hepatitis B virus ; cells: HepG2.117 ; method: PCR ; measure: EC50 ; value: 0.5–5 µM
CC1(C)CC(=O)C2=C(C1)Nc1c(O)cccc1N(C(=O)c1csc(Br)n1)C2c1ccc(OCc2ccccc2)cc1F ; agent: Hepatitis C virus ; strain: 1b ; method: luciferase / reporter gene / replicon ; measure: EC50 ; value: 0.94 µM
Cc1c(C(=O)C(=O)NC(C)(C)c2ccncn2)c(C)n(C)c1C(=O)Nc1ccc(F)c(C#N)c1 ; agent: Hepatitis B virus ; cells: HepG2.2.15 ; method: PCR ; measure: EC50 ; value: 0.001–0.0099 µM
Nc1ccn([C@@H]2CS[C@H](CO)O2)c(=O)n1 ; agent: Hepatitis B virus ; cells: 2.2.15 ; measure: EC90 ; value: 0.9 µM
O=C(NC1CC2(C1)CC(c1nc3cc(Cl)ccc3o1)C2)C1CN(Cc2ccccc2)S(=O)(=O)C1 ; agent: Hepatitis A virus ; cells: Primary human hepatocytes ; method: luminescence ; measure: EC50 ; value: 4.6 µM
C#C[C@](C)(CO)NC(=O)C(=O)c1c(C)c(C(=O)Nc2ccc(F)c(C(F)(F)F)c2)n(C)c1C ; agent: Hepatitis B virus ; cells: HepG2.2.15 ; method: PCR ; measure: EC50 ; value: <0.001 µM
CNC(=S)Nc1cccc(OCCCCCc2ccccc2)c1 ; agent: Hepatitis C virus ; cells: Ava5-EG(delta4AB)SEAP ; method: reporter gene / fluorescence ; measure: EC50 ; value: 0.001–1 µM
O=C(N[C@@H](C(=O)N1CCC[C@H]1c1ncc(-c2ccc(-c3ccc(-c4cnc([C@@H]5CCCN5C(=O)[C@H](NC(=O)C5CC5)c5ccccc5)s4)cc3)cc2)s1)c1ccccc1)C1CC1 ; agent: Hepatitis C virus ; strain: genotype 1b ; mutations: V153M+M202L+M265V ; cells: Huh7.5 ; method: luciferase / reporter gene ; measure: fold resistance ; value: 1
COc1ccc(-n2c(-c3ncc(Cc4ccccc4)o3)c3n(c2=O)CCN(C(=O)c2ccc(Br)c(Cl)c2)C3)cc1 ; agent: Hepatitis B virus ; cells: HepG2.117 ; method: PCR ; measure: EC50 ; value: 0.5–5 µM
C#CC1(NC(=O)C(=O)c2c(C)c(C(=O)Nc3ccc(F)c(C#N)c3)n(C)c2C)CCS(=O)(=O)CC1 ; agent: Hepatitis B virus ; cells: HepG2.2.15 ; method: PCR ; measure: EC50 ; value: 0.001–0.0099 µM
CC1(C)CC(=O)C2=C(C1)Nc1c(O)cccc1N(C(=O)c1cocn1)C2c1ccc(OCc2ccccc2)cc1F ; agent: Hepatitis C virus ; strain: 1b ; method: luciferase / reporter gene / replicon ; measure: EC50 ; value: 0.48 µM
C[C@@H]1O[C@@H](O[C@@H]2Cc3c(O)cc(O)cc3O[C@@H]2c2ccc(O)c(O)c2)[C@H](O)[C@H](O)[C@H]1O ; agent: Hepatitis B virus ; cells: HepG2.2.15 ; method: ELISA / antigen ; measure: inhibition ; tested at: 30 µM ; value: 71.3%
C#C[C@H](NC(=O)C(=O)c1c(C)c(C(=O)Nc2ccc(F)c(C#N)c2)n(C)c1C)C1COC1 ; agent: Hepatitis B virus ; cells: HepG2.2.15 ; method: PCR ; measure: EC50 ; value: <0.001 µM
CC1CCC(C(=O)N(c2cc(C#CC(C)(C)C)sc2C(=O)O)C2CCC(O)CC2)CC1 ; agent: Hepatitis C virus ; strain: H77 (GT1a) ; mutations: R422K ; cells: Huh7 ; method: luciferase ; measure: fold resistance ; value: 97.8
Cc1c(C(=O)C(=O)NC2(c3ccncc3)CC(F)(F)C2)c(C)n(C)c1C(=O)Nc1ccc(F)c(C(F)(F)F)c1 ; agent: Hepatitis B virus ; cells: HepG2.2.15 ; method: PCR ; measure: EC50 ; value: <0.001 µM
NC(=S)Nc1cccc(OCCCCCOc2ccc(-c3ccccc3)cc2)c1 ; agent: Hepatitis C virus ; cells: Ava5-EG(delta4AB)SEAP ; method: reporter gene / fluorescence ; measure: EC50 ; value: 0.001–1 µM
COC(=O)N[C@H](C(=O)N1CCC[C@H]1c1ncc(-c2ccc(-c3ccc(-c4cnc([C@@H]5CCCN5C(=O)[C@@H](NC(=O)OC)C(C)C)[nH]4)cc3)cc2)[nH]1)C(C)C ; agent: Hepatitis C virus ; strain: 1a ; mutations: Q30R ; cells: Lunet ; method: luciferase ; measure: EC50 ; value: 0.0061 µM
Cc1c(C(=O)C(=O)NC(C)(C)c2nnco2)c(C)n(C)c1C(=O)Nc1ccc(F)c(C(F)(F)F)c1 ; agent: Hepatitis B virus ; cells: HepG2.2.15 ; method: PCR ; measure: EC50 ; value: 0.001–0.0099 µM
CC(C)Nc1nc(C(=O)N2c3cccc(O)c3NC3=C(C(=O)CC(C)(C)C3)C2c2ccc(OCc3ccccc3)cc2F)cs1 ; agent: Hepatitis C virus ; strain: 1b ; method: luciferase / reporter gene / replicon ; measure: EC50 ; value: 4.33 µM
CO[C@H]1CN(Cc2ccccc2)C(=O)c2c3n(c(=O)n2C1)CCN(C(=O)c1ccc(Br)c(Cl)c1)C3 ; agent: Hepatitis B virus ; cells: HepG2.117 ; method: PCR ; measure: EC50 ; value: 0.1–0.5 µM
CC(=O)N1c2cccc(O)c2NC2=C(C(=O)CC(C)(C)C2)C1c1ccc(OCc2ccncc2)cc1Cl ; agent: Hepatitis C virus ; strain: 1b ; method: luciferase / reporter gene / replicon ; measure: EC50 ; value: 8.24 µM
O=C(O[C@@H]1Cc2c(O)cc(O)cc2O[C@@H]1c1cc(O)c(O)c(O)c1)c1cc(O)c(O)c(O)c1 ; agent: Hepatitis B virus ; method: PCR ; measure: inhibition ; tested at: 25 µM ; value: 42.2%

ECn: concentration that inhibits the pathogen or its effect by n%. Fold resistance: result on the changed form divided by that on wild type. Conditions beyond the fields shown may differ between rows. Inhibition is in % at the dose shown (toxicity tests: loss of growth or viability).